A mixed list of measured activities; the numbers were collected in NIAID ChemDB.

Common to all: tests in culture; agent: HIV-1; endpoint: fold resistance

Fold resistance has wild type as its base.

structure,cell line,changes,method,strain,value
O=C1Nc2ccc(F)c(F)c2[C@@](C#CC2CC2)(C(F)(F)F)N1,-,RT-V108I,-,-,<13.3
CC(C)=CCOc1cc(NC(=S)c2ccsc2C)ccc1Cl,CEM + CEM-SS,RT-Y188C,cytopathic effect / XTT,NL4-3 (RT Y188C),1
CC(C)OC(=O)Nc1ccc(Cl)c(C(=O)OC(C)C)c1,CEM,RT-E138K,syncytia,-,>1.82
O=C1Nc2ccc(F)c(F)c2[C@@](/C=C/C2CC2)(C(F)(F)F)N1,-,RT-V108I,-,-,<6.32
Cc1cc(S(N)(=O)=O)ccc1NC(=O)COc1ccc(Cl)cc1C(=O)c1cc(F)cc(C#N)c1,HeLa + HELA CD4+,RT-V106A Y181C,β-galactosidase,HXB2,~1
CCC(=O)c1ccc(F)c([C@@H]2C[C@@H]2NC(=O)Nc2ccc(C#N)cn2)c1O,TZM-bl,NNRTI-resistant (RT V179D),β-galactosidase / luminescence,LAI,1.1
CCC(C)OC(=O)c1cc(NC(=S)OC(C)C)ccc1Cl,CEM,RT-E138K,syncytia,-,27.3
CCc1c(Sc2cc(C)cc(C)c2)n(COCc2ccccc2)c(=S)[nH]c1=O,CEM,RT-E138K,syncytia,IIIB,1.67
CC(C)OC(=O)c1cc(NC(=S)OCC2CC2)ccc1Cl,CEM,RT-L100I,syncytia,-,35.6
N#Cc1cc(Cl)cc(Oc2c(Br)ccc(CC(=O)Nc3ccc(S(N)(=O)=O)cc3Cl)c2F)c1,MT-4,K103N/Y181C,-,-,1
CC(C)=CCOc1cc(NC(=S)c2ccoc2C)ccc1Cl,CEM + CEM-SS,RT-Y181C K101E,cytopathic effect / XTT,UC10-resistant (RT Y181C K101E),>222
Cc1cc(C#N)cc(C(=O)c2cc(Cl)ccc2OCC(=O)Nc2ccc(S(N)(=O)=O)nc2C)c1,HeLa + HELA CD4+,RT-K103N G190A,β-galactosidase,HXB2 (RT-K103N G190A) Recombinant,~1
C=CCOc1cc(NC(=S)OC(C)C)ccc1Cl,CEM,RT-V106A,syncytia,-,9.52
Cc1cc(C#N)cc(C(=O)c2cc(Cl)ccc2OCC(=O)Nc2cnc(S(N)(=O)=O)cc2C)c1,HeLa + HELA CD4+,RT-Y181C,β-galactosidase,HXB2,~1
CCOC(=O)COc1cc(NC(=S)OC(C)C)ccc1Cl,CEM,RT-Y181C,syncytia,-,19.8
Cc1ccc(C2CC2)c(-c2cc(F)c3c(c2C)CCCO3)c1[C@H](OC1CC1)C(=O)O,MT-4,INSTI-resistant (IN-E92Q),luminescence,NL4-3,1
CC(C)c1c(Sc2ccccc2)n(COCc2ccccc2)c(=O)[nH]c1=O,CEM,RT-Y188H,syncytia,IIIB,≥3330
Cc1ccc(C2CC2)c(-c2ccc3c(c2C)CCCO3)c1[C@H](OC(C)(C)C)C(=O)O,MT-4,INSTI-resistant (IN-E92Q),luminescence,NL4-3,1
C#CCOc1cc(NC(=S)OC(C)C)ccc1Cl,CEM,RT-L100I,syncytia,-,50
CCOCn1c(Sc2ccccc2)c(CC)c(=O)[nH]c1=O,CEM,Nevirapine resistant (RT Y181C),syncytia,IIIB,108
CC(C)=CCOc1cc(NC(=S)c2ccsc2C)ccc1Cl,CEM + CEM-SS,RT-L100I,p24,NL4-3,33
CC(C)[C@H](NC(=O)OCc1ccccn1)C(=O)N[C@@H](Cc1ccccc1)[C@@H](O)C[C@H](Cc1ccccc1)NC(=O)OCc1cccnc1,MT-4,PR-L10R M46I V82T,p24,NL4-3,1.875
CC(C)OC(=O)Oc1cc(NC(=S)OC(C)C)ccc1Cl,CEM,RT-E138K,syncytia,-,2.5
Cc1cc2cn[nH]c2cc1NC(=O)COc1ccc(Cl)cc1C(=O)c1cccc(C#N)c1,HeLa + HELA CD4+,RT-K103N V108I,β-galactosidase,HXB2,~1
COCCOC(=S)Nc1ccc(Cl)c(C(=O)OC(C)C)c1,CEM,RT-E138K,syncytia,-,31.6
CCOCn1c(Sc2ccccc2)c(CC)c(=O)[nH]c1=S,CEM,RT-L100I,syncytia,IIIB (TIBO 82150) (RT-L100I),5.45

For reference, 3 entries again:

structure	cell line	changes	method	strain	value
Cc1cc(S(N)(=O)=O)ccc1NC(=O)COc1ccc(Cl)cc1C(=O)c1cc(F)cc(C#N)c1	HeLa + HELA CD4+	RT-V106A Y181C	β-galactosidase	HXB2	~1
CCOCn1c(Sc2ccccc2)c(CC)c(=O)[nH]c1=O	CEM	Nevirapine resistant (RT Y181C)	syncytia	IIIB	108
O=C1Nc2ccc(F)c(F)c2[C@@](/C=C/C2CC2)(C(F)(F)F)N1	-	RT-V108I	-	-	<6.32

Blank or dashed fields: not listed here. Conditions beyond the fields shown may differ between rows.